Results taken from ChEMBL document CHEMBL6178023 (J Med Chem, 2025).

Assays:
[1] = Cytotoxicity against human NHDF cells infected with MAYV assessed as cell viability at 0.01 to 100 uM incubated with cells for 1 hr followed by viral infection for 2 hrs and subsequent replacement of fresh media with compound measured after 24 hrs post-infection by Cell Titer Glo assay; settings: 25 h
[2] = Cytotoxicity against human NHDF cells infected with VEEV assessed as cell viability at 0.01 to 100 uM incubated with cells for 1 hr followed by viral infection for 2 hrs and subsequent replacement of fresh media with compound measured after 24 hrs post-infection by Cell Titer Glo assay; settings: 25 h
[3] = test system: Venezuelan equine encephalitis virus; assay: Anti-viral activity against VEEV infected in human NHDF cells assessed as log reduction in viral titer at 0.01 to 100 uM incubated with cells for 1 hr followed by viral infection for 2 hrs and subsequent replacement of fresh media with compound measured after 24 hrs post-infection by extracting viral supernatant from cells and transferring supernatant to African geen monkey Vero cells for measurin; settings: dose 0.01-100 µM; time 25 hrs
[4] = Cytotoxicity against human NHDF cells infected with CHIKV assessed as cell viability at 0.01 to 100 uM incubated with cells for 1 hr followed by viral infection for 2 hrs and subsequent replacement of fresh media with compound measured after 24 hrs post-infection by Cell Titer Glo assay; settings: 25 h

Q: With `O=C(N1CCC2(CC1)CC(CN1CCCCS1(=O)=O)CCO2)C1(c2ccccc2)CCCC1` (centres undefined) as the molecule, how does the Activity [1] read?
A: Non-toxic

Q: And the Activity [2]?
A: Non-toxic

Q: And the Activity [3]?
A: 0.01 10^5No_unit

Q: What about the Activity [4] of the same molecule?
A: Non-toxic
